Anti-infective test results gathered from many reports (values: NIAID ChemDB through PubChem).

Common to all: tests on isolated targets

Inhibition is in % at the dose shown (toxicity tests: loss of growth or viability). An empty or dashed field is not shown. ICn: concentration for n% inhibition. Rows are shuffled and stem from different studies. Fold resistance: result on the changed form divided by that on wild type.

structure	target	tested at	species	strain	endpoint	method	mutations	result
O=C(O)c1ccc2c(c1)nc(-c1ccc3nc(-c4cc(OCC(=O)N5CCCC5)ccc4-c4ccccc4)ccc3c1)n2C1CCCCC1	NS5B polymerase	33 µM	Hepatitis C virus	-	inhibition	-	-	97.56%
Cc1ccc(-c2cncc(N3CCN(c4ccncc4)CC3)n2)cc1	UL97 kinase	1 µM	Cytomegalovirus	-	inhibition	-	-	<50%
O=C(CSc1nnnn1-c1ccc(C2CC2)cc1Cl)Nc1ccc(C#CCCN2CCNCC2)cc1Cl	Reverse transcriptase	-	HIV-1	WT	IC50	PicoGreen / fluorescence	-	<1 µM
Cc1ccc(F)cc1C(=O)O/N=C(\N)c1ccc(Cl)cc1Cl	Polymerase	-	Human cytomegalovirus	-	IC50	scintillation proximity / radiometric	-	4.4 µM
O=C(c1ccno1)N1CCC(Cn2c(=O)cc(Nc3ccc4c(c3)CCC4)[nH]c2=O)CC1	DNA polymerase	-	Staphylococcus aureus	-	IC50	-	-	0.07 µM
CC(C)(O)C#Cc1ccc(NC(=O)CSc2nnnn2-c2cc(C#N)ccc2Cl)c(Cl)c1	Reverse transcriptase	-	HIV-1	WT	IC50	PicoGreen / fluorescence	-	<1 µM
O[C@@H]1[C@@H](O)[C@@H](NCc2ccc(C(F)(F)F)cc2)[C@@H]2O[C@@H]2[C@H]1O	Beta-D-xylosidase	-	Aspergillus niger	-	Ki	-	-	2.2 µM
CCOC(=O)CCCN1C(=O)Cc2ccccc2C1=O	Protease	-	Rhinovirus	Serotype 2	IC50	-	-	>200 µM
O=C(O)c1nc(-c2ccsc2C(=O)O)[nH]c(=O)c1O	HCV polymerase	-	Hepatitis C virus	-	IC50	-	-	<25 µM
Cc1ccc(N2CCN(c3cncc(-c4cccc(C)c4)n3)CC2)cc1	UL97 kinase	10 µM	Cytomegalovirus	-	inhibition	-	-	>15%
CN(CCc1ccncc1)C(=O)COc1ccc(NC(=O)CSc2nnnn2-c2ccc(C3CC3)cc2Cl)c(Cl)c1	Reverse transcriptase	-	HIV-1	-	IC50	PicoGreen / fluorescence	RT-K103 Y181C	<1 µM
Cc1[nH]nc2c1C(c1cc(Cl)cc(Cl)c1)(C1CC1)C(C#N)=C(N)O2	Serine hydroxymethyltransferase	-	Plasmodium falciparum	-	IC50	absorbance	-	0.38 µM
O=C(O)Cc1ccc(-c2ccc(NC(=O)CSc3nnnn3-c3ccc4ccccc4c3Cl)c(Cl)c2)cc1	Reverse transcriptase	-	HIV-1	WT	IC50	PicoGreen / fluorescence	-	<1 µM
O=C(Nc1ccccc1)Nc1ccccc1-c1nc(C(=O)O)c(O)c(=O)[nH]1	HCV polymerase	-	Hepatitis C virus	-	IC50	-	-	<100 µM
CC(C)(C#Cc1ccc(NC(=O)CSc2nnnn2-c2cc(C(C)(C)C)cc(Br)c2Cl)c(Cl)c1)NC(=O)CN=c1ccn(O)cc1	Reverse transcriptase	-	HIV-1	WT	IC50	PicoGreen / fluorescence	-	<1 µM
Clc1cc(CN2CCCNCCNCCCNCC2)cc(Cl)n1	CXCR4	-	-	-	fold resistance	-	CXCR4-H113A	4.8
Cc1ccc(-n2nnnc2SCC(=O)Nc2ccc(-c3ccc(CC(=O)NS(C)(=O)=O)cc3)cc2Cl)c(Cl)c1	Reverse transcriptase	-	HIV-1	WT	IC50	PicoGreen / fluorescence	-	<1 µM
O=C(OCc1ccc(S(=O)(=O)Nc2ccccc2-c2nc(C(=O)O)c(O)c(=O)[nH]2)s1)c1ccccc1	HCV polymerase	-	Hepatitis C virus	-	IC50	-	-	<100 µM
COc1ccc(C2CC(c3cc4ccccc4o3)=NN2c2ccc([N+](=O)[O-])cc2)cc1	Geranylgeranyl-protein transferase I	-	Candida albicans	-	IC50	-	-	0.06 µM
FC(F)(F)c1ccc(-c2cncc(N3CCN(c4cnccn4)CC3)n2)cc1	UL97 kinase	1 µM	Cytomegalovirus	-	inhibition	-	-	<50%
CC(C)(C#Cc1ccc(NC(=O)CSc2nnnn2-c2ccc(C3CC3)cc2Cl)c(Cl)c1F)OCCOc1ccncc1	Reverse transcriptase	-	HIV-1	-	IC50	PicoGreen / fluorescence	RT-K103 Y181C	<1 µM
CCc1cc(Nc2cc(=O)n(CC3CCN(C(=O)c4ccno4)CC3)c(=O)[nH]2)ccc1C	DNA polymerase	-	Staphylococcus aureus	-	IC50	-	-	0.09 µM
CC(C)(C#Cc1ccc(NC(=O)CSc2nnnn2-c2cc(C3CC3)ccc2Cl)c(Cl)c1)NC(=O)CN	Reverse transcriptase	-	HIV-1	WT	IC50	PicoGreen / fluorescence	-	<1 µM
Cc1cccc(N2CCN(c3cncc(-c4cc5ccccc5s4)n3)CC2C)c1	UL97 kinase	10 µM	Cytomegalovirus	-	inhibition	-	-	>15%
CC(C)(C#Cc1ccc(NC(=O)CSc2nnnn2-c2cc(C3CC3)ccc2Cl)c(Cl)c1)NC(=O)CN1CCNCC1	Reverse transcriptase	-	HIV-1	-	IC50	PicoGreen / fluorescence	RT-K103 Y181C	<1 µM
CO[C@H](C(=O)NO)[C@@H](CC(C)C)C(=O)N[C@H](C(=O)O)c1ccccc1	PfM17LAP	-	Plasmodium falciparum	-	Ki	fluorescence	-	0.025 µM
Cc1onc(-c2c(Cl)cccc2Cl)c1C(=O)O/N=C(\N)c1ccc(Cl)cc1Cl	Polymerase	-	Human cytomegalovirus	-	IC50	scintillation proximity / radiometric	-	9.5 µM
Cc1nnc(SCC(=O)Nc2ccc(-c3ccc(OCCN4CCCC4)cc3)cc2Cl)n1-c1ccc(C2CC2)cc1Cl	Reverse transcriptase	-	HIV-1	WT	IC50	PicoGreen / fluorescence	-	<1 µM
N/C(=N\OC(=O)c1ccncc1)c1ccc(Cl)cc1Cl	Polymerase	-	Human cytomegalovirus	-	IC50	scintillation proximity / radiometric	-	52 µM
CC(C)(C#Cc1ccc(NC(=O)CSc2nnnn2-c2cc(C(F)(F)F)c(C3CC3)cc2Cl)c(Cl)c1)C(=O)O	Reverse transcriptase	-	HIV-1	WT	IC50	PicoGreen / fluorescence	-	<1 µM
O=C(O)c1ccc2c(c1)nc(-c1ccc3nc(-c4cc(C(=O)N5CCCC5)ccc4-c4ccc(Cl)cc4)cnc3c1)n2C1CCCCC1	NS5B polymerase	33 µM	Hepatitis C virus	-	inhibition	-	-	99.68%
CCCCN1C(=O)c2ccccc2C(C(C)=O)C1=O	Protease	-	Rhinovirus	Serotype 2	IC50	-	-	>200 µM
CCN(CC)CCCC(C)NC(=O)c1ccc(-c2cc(C#N)cc(C3(C(C)C)C(C#N)=C(N)Oc4n[nH]c(C)c43)c2)s1	Serine hydroxymethyltransferase	-	Plasmodium falciparum	-	IC50	absorbance	-	0.35 µM
O=C(O)c1ccc2c(c1)nc(-c1ccc3nc(-c4cccc(-c5ccc(Cl)cc5)c4)ccc3c1)n2C1CCCCC1	NS5B polymerase	100 µM	Hepatitis C virus	-	inhibition	-	-	99.39%
CC(C)(C)c1ccc(-n2nnnc2SCC(=O)Nc2ccc(OCC(=O)Nc3ccccc3C(=O)O)cc2Cl)c(Cl)c1	Reverse transcriptase	-	HIV-1	WT	IC50	PicoGreen / fluorescence	-	<1 µM
Cc1cccc(C(=O)N2CCN(c3cncc(-c4ccc5ccccc5c4)n3)CC2C)c1	UL97 kinase	10 µM	Cytomegalovirus	-	inhibition	-	-	>15%
CC1(c2ccc(OCC#N)c(Cl)c2Cl)C(=O)c2ccccc2C1=O	Geranylgeranyl-protein transferase I	-	Candida albicans	-	IC50	-	-	0.08 µM
Cc1c(F)cccc1C(=O)O/N=C(\N)c1ccc(Cl)cc1Cl	Polymerase	-	Human cytomegalovirus	-	IC50	scintillation proximity / radiometric	-	2.1 µM
Cc1[nH]nc2c1C(c1cc(Cl)cc(Cl)c1)(C(C)C)C(C#N)=C(N)O2	Serine hydroxymethyltransferase	-	Plasmodium falciparum	-	IC50	absorbance	-	0.29 µM
COc1cc(Nc2cncc(-c3cccc(F)c3)n2)cc(OC)c1OC	UL97 kinase	-	Cytomegalovirus	-	IC50	-	-	<10 µM
Nc1nc2c(ncn2[C@H]2CO[C@@H](COP(=O)(O)OP(=O)(O)OP(=O)(O)O)O2)c(=O)[nH]1	Reverse transcriptase	-	HIV	-	fold resistance	radiometric	RT-Q151M	5.3
CCOC(=O)CCCN1C(=O)c2ccccc2C(C(=O)c2ccccc2)C1=O	Protease	-	Rhinovirus	Serotype 2	IC50	-	-	3.9 µM
Cc1ccc(/C(N)=N\OC(=O)c2cccc3ccccc23)c(C)c1	Polymerase	-	Human cytomegalovirus	-	IC50	scintillation proximity / radiometric	-	20.4 µM
CC(C)(C)c1ccc(-n2nnnc2SCC(=O)Nc2ccc(OCC(=O)Nc3ccccc3O)cc2Cl)c(Cl)c1	Reverse transcriptase	-	HIV-1	-	IC50	PicoGreen / fluorescence	RT-K103 Y181C	<1 µM
COc1ccc(-c2ccccc2)c(-c2ccc3cc(-c4nc5cc(C(=O)O)ccc5n4C4CCCCC4)ccc3n2)c1	NS5B polymerase	100 µM	Hepatitis C virus	-	inhibition	-	-	99.74%
O=C(CSc1nnnn1-c1ccc(C(F)(F)F)cc1Cl)Nc1ccc(-c2ccc(OCCn3ccnc3)cc2)cc1Cl	Reverse transcriptase	-	HIV-1	WT	IC50	PicoGreen / fluorescence	-	<1 µM
N/C(=N/OC(=O)c1cccc2ccccc12)c1c(Cl)cccc1Cl	Polymerase	-	Human cytomegalovirus	-	IC50	scintillation proximity / radiometric	-	59.6 µM
CCc1cc(Nc2cc(=O)n(CC3CCN(C(=O)c4ccc(Cn5cc(Cl)cn5)o4)CC3)c(=O)[nH]2)ccc1C	DNA polymerase	-	Staphylococcus aureus	-	IC50	-	-	0.008 µM
Oc1ccc(CN[C@@H]2[C@H](O)[C@@H](O)[C@H](O)[C@@H]3O[C@H]23)cc1	Beta-D-xylosidase	100 µM	Aspergillus niger	-	inhibition	-	-	0%
CC(C)(C)c1ccc(-n2nnnc2SCC(=O)Nc2ccc(OCC(=O)NCCC(=O)O)cc2Cl)c(Cl)c1	Reverse transcriptase	-	HIV-1	-	IC50	PicoGreen / fluorescence	RT-K103 Y181C	<1 µM
Fc1ccc(-c2cncc(NCc3ccco3)n2)c(F)c1	UL97 kinase	1 µM	Cytomegalovirus	-	inhibition	-	-	<50%
CN(C)CCCC(=O)NC(C)(C)C#Cc1ccc(NC(=O)CSc2nnnn2-c2cc(C(F)(F)F)ccc2Cl)c(Cl)c1F	Reverse transcriptase	-	HIV-1	WT	IC50	PicoGreen / fluorescence	-	<1 µM
COc1ccc(N2CCN(c3cncc(-c4cccc(C)c4)n3)CC2)cc1OC	UL97 kinase	1 µM	Cytomegalovirus	-	inhibition	-	-	<50%
COc1cccc(C(=O)O/N=C(\N)c2ccc(Cl)cc2Cl)c1	Polymerase	-	Human cytomegalovirus	-	IC50	scintillation proximity / radiometric	-	7.7 µM
COC(=O)c1nc(-c2ccc(S(=O)(=O)Nc3ccccc3Oc3ccc(Cl)cc3Cl)cc2)[nH]c(=O)c1O	HCV polymerase	-	Hepatitis C virus	-	IC50	-	-	<50 µM
CC(C)(C)c1ccc(-n2nnnc2SCC(=O)Nc2ccc(C(=O)N3CCOCC3)cc2Cl)c(Cl)c1	Reverse transcriptase	-	HIV-1	-	IC50	PicoGreen / fluorescence	RT-K103 Y181C	<1 µM
COc1ccc(OC(=O)c2csc(Cc3c(Cl)cccc3Cl)n2)cc1	Farnesyl-protein transferase	-	Candida albicans	-	IC50	-	-	>100 µM
O=C(O)CC(NC(=O)c1ccc2c(c1)nc(-c1ccc3nc(-c4ccccc4)cnc3c1)n2C1CCCCC1)C(=O)O	NS5B polymerase	33 µM	Hepatitis C virus	-	inhibition	-	-	75.71%
O=C(O)c1nc(-c2sccc2/C=C/c2ccccc2)[nH]c(=O)c1O	HCV polymerase	-	Hepatitis C virus	-	IC50	-	-	<25 µM
Cc1ccc(-c2ncsc2SCC(=O)Nc2ccc(-c3ccc(CC(=O)O)cc3)cc2Cl)c(Cl)c1	Reverse transcriptase	-	HIV-1	WT	IC50	PicoGreen / fluorescence	-	<1 µM
COC(=O)C(CCSC)NC(=O)C1(Cc2ccccc2C)CCN(C(=O)[C@@H](N)CS)CC1	Geranylgeranyl-protein transferase I	-	Candida albicans	-	IC50	-	-	0.08 µM
CN(C)CC(=O)NC(C)(C)C#Cc1ccc(NC(=O)CSc2nnnn2-c2cc(C(F)(F)F)ccc2Cl)c(Cl)c1F	Reverse transcriptase	-	HIV-1	-	IC50	PicoGreen / fluorescence	RT-K103 Y181C	<1 µM
Cc1c(OCc2ccccc2)ccc(-c2ccc3cc(-c4nc5cc(C(=O)O)ccc5n4C4CCCCC4)ccc3n2)c1O	NS5B polymerase	100 µM	Hepatitis C virus	-	inhibition	-	-	101%
FC(F)(F)c1cccc(N2CCN(c3cncc(-c4csc5ccccc45)n3)CC2)c1	UL97 kinase	10 µM	Cytomegalovirus	-	inhibition	-	-	>15%
N/C(=N\OC(=O)C1CCCCC1)c1ccc(Cl)cc1Cl	Polymerase	-	Human cytomegalovirus	-	IC50	scintillation proximity / radiometric	-	>100 µM
Nc1ccc(-c2ccc3cc(-c4nc5cc(C(=O)O)ccc5n4C4CCCCC4)ccc3n2)cc1Br	NS5B polymerase	100 µM	Hepatitis C virus	-	inhibition	-	-	98.17%
CSCCCN1C(=O)c2ccccc2C(CC(=O)c2ccccc2)C1=O	Protease	-	Rhinovirus	Serotype 2	IC50	-	-	8.4 µM
Cc1[nH]nc2c1C(c1cc(C#N)cc(N3CCCC3=O)c1)(C1CCC1)C(C#N)=C(N)O2	Serine hydroxymethyltransferase	-	Plasmodium falciparum	-	IC50	absorbance	-	0.59 µM
O[C@@H]1[C@@H](O)[C@@H](NCc2ccc(C(F)(F)F)cc2)[C@H]2O[C@H]2[C@H]1O	Amyloglucosidase	100 µM	Aspergillus niger	-	inhibition	-	-	16%
O=C(O)c1ccc2c(c1)nc(-c1ccc3c(c1)CCC(c1ccccc1)N3)n2C1CCCCC1	NS5B polymerase	33 µM	Hepatitis C virus	-	inhibition	-	-	99.25%
O=C(Cc1ccsc1)Nc1ccsc1-c1nc(C(=O)O)c(O)c(=O)[nH]1	HCV polymerase	-	Hepatitis C virus	-	IC50	-	-	<25 µM
Oc1ccc(CN[C@@H]2[C@H](O)[C@@H](O)[C@H](O)[C@H]3O[C@@H]23)cc1	Beta-D-xylosidase	100 µM	Aspergillus niger	-	inhibition	-	-	86%
CC1=C(CC/C(C)=C/CC/C(C)=C/CCC2=CCOC2=O)C(C)(C)CCC1=O	p56lck tyrosine kinase	500 µM	-	-	inhibition	ELISA	-	55%